According to patent publication US5387717A, “Method for the detoxification of mustard gas, sulfur-containing quaternary ammonium ionene polymers and their use as microbicides” (dated 1995):

Test system: mixed bacterial population comprised of Staphylococcus aureus, Enterobacter aerogenes and Pseudomonas aeruginosa
Test: Short contact suspension screen (contact disinfectant)
Details: 10 min exposure

**Q.** With Benzalkonium Chloride as the substance, how does the “% REDUCTION” value (50 ppm) read?
**A.** 83.44%

**Q.** What about the “% REDUCTION” value (100 ppm) of the same substance?
**A.** 86.29%

**Q.** And the “% REDUCTION” value (250 ppm)?
**A.** 99.68%

**Q.** And the “% REDUCTION” value (500 ppm)?
**A.** 99.99%
